Data as given in PubChem BioAssay AID1224833 (University of Georgia, 2016)
The whole screen tested about 12,000 reagents; below is a random part of them. Over the whole deposit, about 5,600 (46%) are marked active. 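Active calls cover z-scores past 1 in both directions, so they include lowered as well as raised rotavirus replication.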 No sequences are given here.

Purpose: 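Human genes whose knock-down alters rotavirus replication in monkey cells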 (primary screen)
System: monkey MA104 kidney cells
Reagents: siRNA pool against human genes, 50 nM
Timing: 48 h knock-down before infection; read 24 h after infection
Conditions: infection with rotavirus strain RV3 two days after transfection; infectious dose for this stage not given
Detection: 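Rotavirus antigen per well by fluorescent immunoassay, normalised to non-targeting control wells on each plate and given as a standard z-score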
Reading the numbers: z-score vs non-targeting control: higher = more rotavirus replication than with non-targeting control
Hit rule: In these data the active calls have z-score vs non-targeting control at about -1 or lower, or at about 1 or higher
Calls: active = z-score beyond 1 either way; inactive = z-score within 1 of zero

SPRED1 (sprouty related EVH1 domain containing 1) scored z-score vs non-targeting control -0.975; inactive.
With knock-down of TYMS (thymidylate synthetase) the results were z-score vs non-targeting control -0.702; inactive.
AKAP10 (A-kinase anchoring protein 10) showed z-score vs non-targeting control -1.92; active.
With knock-down of CCPG1 (cell cycle progression 1), the record shows z-score vs non-targeting control 0.315; inactive.
Silencing of BACE2 (beta-secretase 2) came out at: z-score vs non-targeting control -0.691; inactive.
Depletion of ESF1 (ESF1 nucleolar pre-rRNA processing protein) came out at: z-score vs non-targeting control -2.66; active.
DENND4A (DENN domain containing 4A) showed z-score vs non-targeting control 0.157; inactive.
SNN (stannin) scored z-score vs non-targeting control -1.03; active.
Silencing of TRAPPC10 (trafficking protein particle complex subunit 10) gave: z-score vs non-targeting control -0.175; inactive.
CMTM1 (CKLF like MARVEL transmembrane domain containing 1) scored z-score vs non-targeting control 1.49; active.
Silencing of PARN (poly(A)-specific ribonuclease) resulted in: z-score vs non-targeting control -1.31; active.
Silencing of STX12 (syntaxin 12) resulted in: z-score vs non-targeting control 0.548; inactive.
With knock-down of MTRR the results were z-score vs non-targeting control -0.917; inactive.
TMEM130 (transmembrane protein 130) showed z-score vs non-targeting control -1.41; active.
Against COX14 (cytochrome c oxidase assembly factor COX14), the values are z-score vs non-targeting control 1.29; active.
After knock-down of KRTAP6-2 (keratin associated protein 6-2), the record shows z-score vs non-targeting control -0.783; inactive.
Knock-down of SPINK9 (serine peptidase inhibitor Kazal type 9) resulted in: z-score vs non-targeting control -1.52; active.
FLG (filaggrin) showed z-score vs non-targeting control -1.13; active.
MROH9 (maestro heat like repeat family member 9) showed z-score vs non-targeting control -0.691; inactive.
With knock-down of ZNF80 (zinc finger protein 80), the record shows z-score vs non-targeting control -1.16; active.
After knock-down of DEFB128 (defensin beta 128) the results were z-score vs non-targeting control 0.274; inactive.
For ANKRD20A1 (ankyrin repeat domain 20 family member A1), the values are z-score vs non-targeting control -1.38; active.
For UGT2A1 (UDP glucuronosyltransferase family 2 member A1 complex locus), the entry reads z-score vs non-targeting control -0.892; inactive.
With knock-down of SLC31A1, the screen gave z-score vs non-targeting control 0.599; inactive.
Knock-down of H2BW1 (H2B.W histone 1) gave: z-score vs non-targeting control 0.524; inactive.
RBL1 (RB transcriptional corepressor like 1) gave z-score vs non-targeting control -0.894; inactive.
UROS (uroporphyrinogen III synthase) showed z-score vs non-targeting control 2.21; active.
Depletion of C21orf91 (chromosome 21 open reading frame 91) resulted in: z-score vs non-targeting control -1.51; active.
After knock-down of DBH (dopamine beta-hydroxylase) the results were z-score vs non-targeting control -1.52; active.
Against ICMT (isoprenylcysteine carboxyl methyltransferase), the entry reads z-score vs non-targeting control -1.54; active.

3 entries from above, set out differently:
gene	z-score vs non-targeting control	activity call
DENND4A (DENN domain containing 4A)	0.157	inactive
SNN (stannin)	-1.03	active
TRAPPC10 (trafficking protein particle complex subunit 10)	-0.175	inactive

The results go on:
Depletion of NT5DC3 (5'-nucleotidase domain containing 3) resulted in: z-score vs non-targeting control 0.479; inactive.
Against PCDHB13 (protocadherin beta 13), the values are z-score vs non-targeting control 0.936; inactive.
Against NPFF (neuropeptide FF-amide peptide precursor), the values are z-score vs non-targeting control 0.0839; inactive.
Against HSPA5 (heat shock protein family A (Hsp70) member 5), the values are z-score vs non-targeting control 0.542; inactive.
For HTN1 (histatin 1), the entry reads z-score vs non-targeting control -0.61; inactive.
After knock-down of DPH2 (diphthamide biosynthesis 2), the record shows z-score vs non-targeting control 0.0272; inactive.
Silencing of SLC7A1 resulted in: z-score vs non-targeting control -2.35; active.
Knock-down of TMEM164 (transmembrane protein 164) resulted in: z-score vs non-targeting control -0.688; inactive.
After knock-down of ZFYVE26 (zinc finger FYVE-type containing 26), the screen gave z-score vs non-targeting control 0.89; inactive.
DOCK11 (dedicator of cytokinesis 11) showed z-score vs non-targeting control -0.141; inactive.
Silencing of ORMDL3 (ORMDL sphingolipid biosynthesis regulator 3) came out at: z-score vs non-targeting control 0.209; inactive.
MED14 (mediator complex subunit 14) scored z-score vs non-targeting control 1.63; active.
For APCS (amyloid P component, serum) the deposit lists z-score vs non-targeting control 0.708; inactive.
PSMF1 (proteasome inhibitor subunit 1) scored z-score vs non-targeting control -0.121; inactive.
After knock-down of OTUD6A (OTU deubiquitinase 6A), the screen gave z-score vs non-targeting control -0.978; inactive.
Silencing of NUTM2G (NUT family member 2G) resulted in: z-score vs non-targeting control -0.935; inactive.
Against DMGDH (dimethylglycine dehydrogenase), the values are z-score vs non-targeting control -1.9; active.
